# Experimental data from PMC12316777.
# Construct, isoform or probe ends are uncertain for at least one entry. At least one verdict rests on a figure or table, not on a statement of the authors.
# Molecular target: nsp13 (helicase) (SARS-CoV-2) (UniProt P0DTD1)
# Test: EMSA
# Settings: recombinant protein, protein details: His6, removed with thrombin
sequence,measurement,setting,value
TTTTTTTTTTTTTTTTTTTTCGAGCACCGCTGCGGCTGCACC / GGTGCAGCCGCAGCGGTGCTCG [nsp13 dsDNA substrate (FL-Cy3/RL)],binding result,"no Au(I), 2 uM nsp13, 100 nM dsDNA",binds
same,binding result,,binds
